Target: QuantiLum Luciferase (firefly luciferase) (Photinus pyralis, UniProt P08659)
Assay: pH dependence of firefly luciferase signal with luciferin or 5′-fluoroluciferin
Type: biochemical
Parameters: purchased Promega Corporation El 70

Chains of the proteins cited; added tags and fusions are not shown.
UniProt P08659, whole entry: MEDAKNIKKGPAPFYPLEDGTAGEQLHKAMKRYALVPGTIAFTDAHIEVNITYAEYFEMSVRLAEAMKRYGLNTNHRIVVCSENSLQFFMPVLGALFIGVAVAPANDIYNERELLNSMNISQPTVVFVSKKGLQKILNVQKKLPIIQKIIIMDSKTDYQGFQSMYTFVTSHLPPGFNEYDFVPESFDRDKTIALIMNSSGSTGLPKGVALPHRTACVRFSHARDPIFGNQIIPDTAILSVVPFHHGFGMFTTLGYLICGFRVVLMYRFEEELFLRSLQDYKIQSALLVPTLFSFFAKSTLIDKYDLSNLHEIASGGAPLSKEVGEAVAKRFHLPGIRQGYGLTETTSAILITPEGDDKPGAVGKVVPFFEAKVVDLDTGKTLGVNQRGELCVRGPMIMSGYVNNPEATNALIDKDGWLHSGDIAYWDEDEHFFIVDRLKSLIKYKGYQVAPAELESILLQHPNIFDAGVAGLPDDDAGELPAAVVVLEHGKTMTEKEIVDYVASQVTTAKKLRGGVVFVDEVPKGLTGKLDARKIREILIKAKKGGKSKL

Compound: O=C(O)[C@H]1CSC(c2nc3ccc(O)cc3s2)=N1 [luciferin, (4S)-4,5-dihydro-2-(6-hydroxybenzothiazolyl)-4-thiazolecarboxylic acid, reference compound]
- Absolute Luminescence (pH 7.673, Tricine): 1,041,115 RLU
- Relative Luminescence (% of 8.3 Luciferin) (pH 7.673, Tricine): 71%
- Absolute Luminescence (pH 7.883, Tricine): 1,254,769 RLU
- Relative Luminescence (% of 8.3 Luciferin) (pH 7.883, Tricine): 86%
- Absolute Luminescence (pH 8.100, Tricine): 1,422,936 RLU
- Relative Luminescence (% of 8.3 Luciferin) (pH 8.100, Tricine): 97%
- Absolute Luminescence (pH 8.327, Tricine): 1,463,179 RLU
- Relative Luminescence (% of 8.3 Luciferin) (pH 8.327, Tricine): 100%
